Compound potency records, mixed from different reports. Data source: NIAID ChemDB in PubChem.

Common to all: enzyme or target tests; species: HIV-1; target: Integrase; read-out: IC50

Conditions beyond the fields shown may differ between rows. Two numbers with a dash give a range or band. ICn: concentration for n% inhibition.

N#C/C(=C\c1cc(O)c(O)c(I)c1)C(=O)NCCCc1ccccc1 ; method: strand transfer ; value: 10–100 µM
COc1cccc2c1C(=N)c1c(O)c3c(c(O)c1C2=O)C[C@@](O)(C(C)=O)C[C@@H]3O[C@H]1C[C@H](N)[C@H](O)[C@H](C)O1 ; method: 3′ processing / substrate cleavage ; value: 20.4 µM
C=CCN1CCc2ccc([C@@H]3CC3c3ccc4cc(C(=N)N)ccc4c3)cc2C1C(C)C ; method: strand transfer ; value: 2.4 µM
CN(C)CCCNC(=O)c1cc(NC(=O)c2cc(NC(=O)c3cc(NC(=O)c4ncccc4C(=O)O)cn3C)cn2C)cn1C ; method: 3′ processing ; value: >100 µM
Nc1nc2ccccc2[nH]1 ; method: strand transfer ; value: 300 µM
Nc1ncnc2c1ncn2C1CC(O)C(COP(=O)(O)OC2CC(n3cnc4c(N)ncnc43)OC2COP(=O)(O)O)O1 ; method: strand transfer ; value: 100 µM
O=C1Cc2ccccc2C(=O)N1O ; method: ELISA ; value: 6.32 µM
CC(=O)Oc1ccc(/C=C/C(=O)Oc2c(-c3ccc(Cl)c(Cl)c3)oc3ccccc3c2=O)cc1OC(C)=O ; method: 3′ processing ; value: >100 µM
O=C(O)C(=O)/C=C(\O)c1cn(Cc2cc(F)ccc2F)c2ccc(F)cc12 ; method: strand transfer / fluorescence ; value: 0.5 µM
O=C(NCc1ccccc1)c1c(O)n(O)c(=O)c2cc([N+](=O)[O-])ccc12 ; method: strand transfer ; value: 0.003 µM
N#C/C(=C\c1cc(O)c(O)c(Br)c1)C(=O)NCCCNC(=O)/C(C#N)=C/c1cc(O)c(O)c(Br)c1 ; method: 3′ processing / substrate cleavage ; value: 0.8 µM
COc1cc([C@@H]2c3cc4c(cc3[C@@H](O[C@@H]3O[C@@H]5CO[C@@H](C)O[C@H]5[C@H](O)[C@H]3O)[C@H]3COC(=O)[C@H]23)OCO4)cc(OC)c1O ; method: strand transfer ; value: >100 µM
Nc1nc2ccc(NCc3cccc(Oc4ccccc4)c3)cc2[nH]1 ; method: strand transfer ; value: 93 µM
CN(C)CCCNC(=O)c1cc(NC(=O)c2cc(NC(=O)c3cc(NC(=O)c4ccc(C(=O)Nc5cc(C(=O)Nc6cc(C(=O)Nc7cc(C(=O)NCCCN(C)C)n(C)c7)n(C)c6)n(C)c5)nc4)cn3C)cn2C)cn1C ; method: 3′ processing ; value: 0.31 µM
O=C(O)C(=O)/C=C(\O)c1ccc2cc(O)c(O)cc2c1 ; method: strand transfer ; value: >0.9 µM
N#CC(C#N)=Cc1cc(O)c(O)c(O)c1 ; method: 3′ processing / substrate cleavage ; value: 5–10 µM
Cc1cc(O)c(C=O)c2c1C(=O)Oc1c(CO)c(O)c3c(c1O2)C(O)OC3=O ; method: strand transfer ; value: 48.5–55 µM
Cc1cn(C2CC(OP(=O)(O)OCC3OC(n4cnc5c(=O)[nH]c(N)nc54)CC3O)C(COP(=O)(O)O)O2)c(=O)[nH]c1=O ; method: strand transfer ; value: 31 µM
N#C/C(=C\c1ccc(O)c(O)c1)C(=O)NCN1CCN(C(=O)/C(C#N)=C/c2ccc(O)c(O)c2)CC1 ; method: strand transfer ; value: 5–10 µM
CC(=O)N1CCc2ccc([C@@H]3CC3c3ccc4cc(C(=N)N)ccc4c3)cc2C1C(C)C ; method: strand transfer ; value: 61 µM
CC(=O)Nc1ccc2c(c1)C(=O)N(O)C(=O)C2C(=O)NCc1ccc(F)cc1 ; method: strand transfer ; value: 0.06 µM
O=c1c(O)c(-c2ccc(Cl)cc2)oc2ccccc12 ; method: 3′ processing ; value: >100 µM
O=C(NCCCCl)C1C(=O)N(O)C(=O)c2ccccc21 ; method: strand transfer ; value: 0.187 µM
O=C1/C(=C/c2ccc(O)c([N+](=O)[O-])c2)CNC/C1=C\c1ccc(O)c([N+](=O)[O-])c1 ; method: 3′ processing ; value: >100 µM
O=C(O)C(=O)/C=C(\O)c1cn(Cc2ccc(F)cc2)c2ccc(Br)cc12 ; changes: Y143R ; method: strand transfer / fluorescence ; value: 0.37 µM
O=C(O)c1cc(N=Nc2ccccc2C(=O)O)ccc1O ; method: strand transfer ; value: 36.7–49.5 µM
C/C=C/C=C/[C@H]1C(C)=C[C@H]2C[C@@H](C)CC[C@@H]2[C@@]1(C)/C(O)=C1/C(=O)[C@H](CO)N(C)C1=O ; method: strand transfer ; value: 7–15 µM
O=C1/C(=C\c2cc(O)c(O)c(O)c2)Cc2ccccc21 ; method: strand transfer ; value: 0.7 µM
COc1ccc(/C(O)=C/C(=O)C(=O)O)cc1OC ; method: strand transfer ; value: 29.9 µM
CN(C)CCCNC(=O)c1cc(NC(=O)c2cc(NC(=O)c3cc(NC(=O)c4cccc(C(=O)Nc5cc(C(=O)Nc6cc(C(=O)Nc7cc(C(=O)NCCCN(C)C)n(C)c7)n(C)c6)n(C)c5)n4)cn3C)cn2C)cn1C ; method: 3′ processing ; value: 33.3 µM
COC(O)/C=C/c1ccc2c(c1)c(C(=O)/C=C1\OC(C)(C)OC1=O)cn2Cc1ccc(F)cc1 ; method: strand transfer / fluorescence ; value: 11.56 µM
Nc1ncnc2c1ncn2[C@@H]1CO[C@H](COP(=O)(O)O)[C@H]1OP(=O)(O)OC[C@H]1O[C@@H](n2ccc(=O)[nH]c2=O)[C@H](O)[C@@H]1O ; method: strand transfer ; value: >1000 µM
O=C1C(=O)c2ccccc2C(O)=C1CSc1ccc(Cl)cc1 ; method: strand transfer ; value: >100 µM
C/C=C/C=C/[C@@H]1C=C[C@@H]2C[C@H](C)CC[C@H]2[C@]1(C)/C(O)=C1/C(=O)[C@H](CO)N(C)C1=O ; method: strand transfer ; value: 11 µM
CC(=O)Oc1c(-c2ccc(Cl)cc2)oc2ccccc2c1=O ; method: 3′ processing ; value: >100 µM
CN(C)CCCNC(=O)c1cc(NC(=O)c2cc(NC(=O)c3cc(NC(=O)c4ccnc(C(=O)Nc5cc(C(=O)Nc6cc(C(=O)Nc7cc(C(=O)NCCCN(C)C)n(C)c7)n(C)c6)n(C)c5)c4)cn3C)cn2C)cn1C ; method: 3′ processing ; value: 33.3 µM
C/C=C/[C@@H]1C=C[C@@H]2C[C@H](C)CC[C@H]2[C@]1(C)/C(O)=C1/C(=O)[C@@H](CO)N(C)C1=O ; method: strand transfer ; value: 15–20 µM
CC(CCN(CCC(C)c1ccccc1)c1ccc2nc(N)[nH]c2c1)c1ccccc1 ; method: strand transfer ; value: 9.2 µM
CN(C)CCCNC(=O)c1cc(NC(=O)c2cc(NC(=O)c3cc(NC4C(=O)c5ccccc5C4=O)cn3C)cn2C)cn1C ; method: disintegration ; value: 28.5 µM
Nc1ccn([C@H]2C[C@H](OP(=O)(O)OC[C@H]3OC[C@@H](n4ccc(=O)[nH]c4=O)[C@@H]3O)[C@@H](COP(=O)(O)O)O2)c(=O)n1 ; method: strand transfer ; value: 43 µM
CC[C@@]1(O)C(=O)OCc2c1cc1n(c2=O)Cc2cc3ccccc3nc2-1 ; method: 3′ processing / substrate cleavage ; value: >100 µM
Cc1cn(C2CC(O)C(COP(=O)(O)OC3CC(n4cnc5c(N)ncnc54)OC3COP(=O)(O)O)O2)c(=O)[nH]c1=O ; method: 3′ processing ; value: 7 µM
CCOC(=O)C(C(=O)OCC)c1cn(S(=O)(=O)c2ccc(C)cc2)c2ccc(NC(=O)c3ccc(OC)cc3)cc12 ; method: strand transfer / fluorescence ; value: >25 µM
O=C1/C(=C/c2ccc(O)c(O)c2)CC(C(=O)O)C/C1=C\c1ccc(O)c(O)c1 ; method: 3′ processing ; value: 1.2 µM
N#C/C(=C\c1ccc(O)c(O)c1)C(=O)NCCCCNC(=O)/C(C#N)=C/c1ccc(O)c(O)c1 ; method: 3′ processing / substrate cleavage ; value: 5–10 µM
COc1cc(C)c2c(c1C)OC(=O)c1c(C)c(Cl)c(O)c(C=O)c1O2 ; method: strand transfer ; value: 1.9–2.6 µM
COc1cc(C(=O)Oc2c(-c3ccc(Cl)cc3)oc3ccccc3c2=O)cc(OC)c1O ; method: 3′ processing ; value: >100 µM
CCN(CCO)CCCC(C)Nc1ccnc2cc(Cl)ccc12 ; method: 3′ processing / substrate cleavage ; value: >100 µM
Nc1ccn(C2CC(OP(=O)(O)OCC3OC(n4cnc5c(=O)[nH]c(N)nc54)CC3O)C(COP(=O)(O)O)O2)c(=O)n1 ; method: strand transfer ; value: 12.4 µM
O=C1C=CC(=O)c2c(O)cccc21 ; method: 3′ processing / substrate cleavage ; value: >100 µM
O=C1/C(=C/c2ccc(Cl)c(Cl)c2)COC/C1=C\c1ccc(Cl)c(Cl)c1 ; method: 3′ processing ; value: 9 µM
O=C(O)C(=O)/C=C(\O)c1ccccc1 ; method: strand transfer ; value: >100 µM
Cc1cn([C@H]2C[C@@H]3OP(=O)(O)OC[C@H]4O[C@@H](n5cnc6c(=O)[nH]c(N)nc65)C[C@@H]4OP(=O)(O)OC[C@H]3O2)c(=O)[nH]c1=O ; method: 3′ processing ; value: >1000 µM
O=C1/C(=C/c2cc(O)c(O)c(O)c2)COC/C1=C\c1cc(O)c(O)c(O)c1 ; method: strand transfer ; value: 9 µM
Cc1cn([C@H]2C[C@H](O)[C@@H](COP(=O)(O)O[C@H]3[C@H](n4cnc5c(N)ncnc54)CO[C@@H]3COP(=O)(O)O)O2)c(=O)nc1N ; method: 3′ processing ; value: 60 µM
O=C1C(=O)c2ccccc2C(O)=C1C(CCc1ccccc1)C1=C(O)c2ccccc2C(=O)C1=O ; method: 3′ processing ; value: >100 µM
O=C(/C=C/c1ccc(O)c(O)c1)Oc1c(-c2ccc(Cl)c(Cl)c2)oc2ccccc2c1=O ; method: 3′ processing ; value: 60 µM
CCN1C/C(=C\c2ccc(O)c(O)c2)C(=O)/C(=C/c2ccc(O)c(O)c2)C1 ; method: strand transfer ; value: 1.1 µM
CCOC(=O)C(C(=O)OCC)c1cn(S(=O)(=O)c2ccc(C)cc2)c2ccc(NC(=O)c3ccc(F)cc3Cl)cc12 ; method: strand transfer / fluorescence ; value: >25 µM
Nc1ccn([C@@H]2O[C@H](COP(=O)(O)O[C@H]3[C@H](n4cnc5c(N)ncnc54)CO[C@@H]3COP(=O)(O)O)[C@@H](O)[C@H]2O)c(=O)n1 ; method: strand transfer ; value: >1000 µM
O=C(NCc1ccc(F)cc1)C1C(=O)N(O)C(=O)c2ccccc21 ; method: 3′ processing ; value: 0.066 µM
COc1cccc2c1C(=O)c1c(O)c3c(c(O)c1C2=O)C[C@@](O)(C(=O)CO)C[C@@H]3O ; method: 3′ processing / substrate cleavage ; value: >100 µM
COc1ccccc1/C(O)=C/C(=O)C(=O)O ; method: strand transfer ; value: >100 µM
O=C1/C(=C/c2ccc([N+](=O)[O-])c(O)c2)CN(Cc2ccccc2)C/C1=C\c1ccc([N+](=O)[O-])c(O)c1 ; method: strand transfer ; value: >100 µM
N#C/C(=C\c1ccc(O)c(O)c1)C(=O)NCCCCCCCCNC(=O)/C(C#N)=C/c1ccc(O)c(O)c1 ; method: 3′ processing / substrate cleavage ; value: 5–10 µM
CC(O)/C=C/c1ccc2c(c1)c(C(=O)/C=C1\OC(C)(C)OC1=O)cn2Cc1ccc(F)cc1 ; changes: G140S ; method: strand transfer / fluorescence ; value: 10.3 µM
Cc1cn(C2CC(O)C(COP(=O)(O)OC3CC(n4cnc5c(N)ncnc54)OC3COP(=O)(O)OC3CC(n4ccc(N)nc4=O)OC3COP(=O)(O)O)O2)c(=O)[nH]c1=O ; method: strand transfer ; value: 20 µM
Cc1c2ccncc2c(C)c2c1[nH]c1ccccc12 ; method: strand transfer ; value: 39.3 µM
COc1cc(C)c2c(c1C=O)Oc1c(c(C)c(O)c3c1C(O)OC3=O)OC2=O ; method: strand transfer ; value: 28.1–39.2 µM
O=C(Oc1c(-c2ccc(Cl)c(Cl)c2)oc2ccccc2c1=O)c1cc(O)c(O)c(O)c1 ; method: 3′ processing ; value: 9.1 µM
COc1cc(/C=C/c2ccc3ccc(C(=O)O)c(O)c3n2)cc(O)c1O ; method: strand transfer ; value: 1.7 µM
COC(=O)c1c(C)c2c(c(C)c1O)OC(=O)c1c(C)cc(O)c(C=O)c1O2 ; method: disintegration ; value: 25 µM
O=C1/C(=C/c2ccc(O)c([N+](=O)[O-])c2)CN(Cc2ccccc2)C/C1=C\c1ccc(O)c([N+](=O)[O-])c1 ; method: strand transfer ; value: >100 µM
CCCCCCCNC1=C(O)c2ccccc2C(=O)C1=O ; method: strand transfer ; value: >100 µM
NCCCNCCCCNCCCN ; method: 3′ processing ; value: >100 µM
CCOC(=O)C1C/C(=C\c2ccc(O)c(O)c2)C(=O)/C(=C/c2ccc(O)c(O)c2)C1 ; method: strand transfer ; value: 0.4 µM